Only a part of the results on these compounds is given; other tests are left out.
Columns and labels:
[1] = system: asynchronous 3D7 chloroquine-sensitive P. falciparum infected red blood cells; test: Labeled hypoxanthine incorporation assay (in vitro anti-malarial activity); assay type: cell-based; settings: read-out: IC50 assessed on Plasmodium Falciparum; 3D7 chloroquine-sensitive strain, infected RBC, 48 h contact, [3H]-hypoxanthine incorporation; two independent experiments in duplicates
[2] = system: Toxoplasma gondii RH-β1 strain; settings: read-out: IC50 assessed on Toxoplama Gondii; RH-β1 strain in HFF monolayers, 48-72 hr, CPRG β-galactosidase readout, triplicates

SMILES: C[C@@H](COC(=O)N1CCC(N(C(=O)C(C)(C)C)c2ccccc2)CC1)N(Cc1ccccc1)Cc1ccccc1
- IC50 [1]: 2.96 µM
- IC50 [2]: 3.7 µM
